A mixed list of measured activities; the numbers were collected in NIAID ChemDB.

Shared fields: growth or infection tests; organism: HIV-1

Blank or dashed fields: not listed here. Fold resistance: result on the changed form divided by that on wild type. Conditions beyond the fields shown may differ between rows. ECn is the concentration giving n% inhibition of infection, replication or growth.

SMILES	changes	endpoint	strain	read by	cell line	result
CC(C)C1=C2[C@H]3CC[C@@H]4[C@@]5(C)CC[C@H](OC(=O)[C@H]6C[C@@H](C(=O)O)C6(C)C)C(C)(C)[C@@H]5CC[C@@]4(C)[C@]3(C)CC[C@@]2([C@@H](O)CNC(C)(C)c2ccccc2)CC1=O		EC50	92HT599	p24 / ELISA	MT-2	<1 µM
O=C(O)c1cc(-n2cccc2)ccc1Cl		EC90	92US657 R5 CLADE B	p24	PBMC + MT-2	133 µM
COc1ccc(S(=O)(=O)N(CC(C)C)C[C@@H](O)CCN(CC2CCCC2)S(=O)(=O)C2CCCC2)cc1		EC90	IIIB	p24	CEM	1 µM
CC(C)C1=C2[C@H]3CC[C@@H]4[C@@]5(C)CC[C@H](OC(=O)[C@H]6C[C@@H](C(=O)O)C6(C)C)C(C)(C)[C@@H]5CC[C@@]4(C)[C@]3(C)CC[C@@]2(CC(=O)NC[C@H](NC(=O)c2ccc(Cl)cc2)C(C)O)CC1=O		EC50	92HT599	p24 / ELISA	MT-2	<1 µM
Cc1cc(S(N)(=O)=O)ccc1NC(=O)COc1ccc(Cl)cc1C(=O)c1cc(Cl)cc(C#N)c1	RT-V106I Y181C	fold resistance	HXB2	β-galactosidase	HeLa + HELA CD4+	~10
COc1ccc(S(=O)(=O)N(CC(C)C)C[C@@H](O)CCN(CC2CCCC2)S(=O)(=O)C(C)(C)C)cc1		EC90	IIIB	p24	CEM	1 µM
Cc1cc(S(N)(=O)=O)ccc1NC(=O)COc1ccc(Cl)cc1C(=O)c1cc(F)cc(C(F)(F)F)c1	RT-L100I K103N	fold resistance	HXB2 (RT-K103N G100I) Recombinant	β-galactosidase	HeLa + HELA CD4+	~1
Cc1ccc(C(=O)NC(C)(C)CNC(=O)C[C@@]23CC[C@]4(C)[C@H](CC[C@@H]5[C@@]6(C)CC[C@H](OC(=O)[C@H]7C[C@@H](C(=O)O)C7(C)C)C(C)(C)[C@@H]6CC[C@]54C)C2=C(C(C)C)C(=O)C3)cc1		EC50	92HT599	p24 / ELISA	MT-2	<1 µM
O=C1Nc2ccc(F)c(F)c2[C@@](C#CC2CC2)(C(F)(F)F)N1	RT-Y188C	EC90				<0.012 µM
CC(C)C1=C2[C@H]3CC[C@@H]4[C@@]5(C)CC[C@H](OC(=O)[C@H]6C[C@@H](C(=O)O)C6(C)C)C(C)(C)[C@@H]5CC[C@@]4(C)[C@]3(C)CC[C@@]2([C@@H](O)CNCc2ccc(O[C@@H]3CCOC3)cc2)CC1=O		EC50	92HT599	p24 / ELISA	MT-2	<1 µM
O=C(COc1ccc(Cl)cc1C(=O)c1nccs1)Nc1ccccc1	RT-Y181C	fold resistance	Nevirapine-resistant (RT Y181C)	cytopathic effect / propidium iodide	MT-4	~10
CC(C)CN(C(=O)C(=O)C(=O)C(Cc1ccccc1)NC(=O)OC(C)(C)C)S(=O)(=O)c1ccccc1		EC90	IIIB	p24	CEM	1 µM
O=C1Nc2ccc(F)c(F)c2[C@@](/C=C/C2CC2)(C(F)(F)F)N1	RT-Y181C	fold resistance				<6.32
O=C(COc1ccc(Cl)cc1C(=O)c1ccccc1)Nc1ccc2cn[nH]c2c1	RT-Y181C	fold resistance	HXB2	β-galactosidase	HeLa + HELA CD4+	~10
CC(C)C1=C2[C@H]3CC[C@@H]4[C@@]5(C)CC[C@H](OC(=O)[C@H]6C[C@@H](C(=O)O)C6(C)C)C(C)(C)[C@@H]5CC[C@@]4(C)[C@]3(C)CC[C@@]2(CC(=O)NCc2ccc(CN3CCC(O)CC3)cc2)CC1=O		EC50	92HT599	p24 / ELISA	MT-2	<1 µM
Cc1cc2cn[nH]c2cc1NC(=O)COc1ccc(Cl)cc1C(=O)c1cccc(C#N)c1	RT-P236L	fold resistance	HXB2	β-galactosidase	HeLa + HELA CD4+	~10
COc1ccc(S(=O)(=O)N(CC(C)C)C[C@@H](O)CCN(CC2CCCC2)S(=O)(=O)c2cccc(N)c2)cc1		EC90	IIIB	p24	CEM	0.1 µM
Cc1cc(C#N)cc(C(=O)c2cc(Cl)ccc2OCC(=O)Nc2cnc(S(N)(=O)=O)cc2C)c1	RT-P225H	fold resistance	HXB2	β-galactosidase	HeLa + HELA CD4+	~1
CC(C)C1=C2[C@H]3CC[C@@H]4[C@@]5(C)CC[C@H](OC(=O)[C@H]6C[C@@H](C(=O)O)C6(C)C)C(C)(C)[C@@H]5CC[C@@]4(C)[C@]3(C)CC[C@@]2(CC(=O)NCc2ccc(Cl)cc2O[C@H]2CCOC2)CC1=O		EC50	92HT599	p24 / ELISA	MT-2	<1 µM
Cc1cc(C#N)cc(C(=O)c2cc(Cl)ccc2OCC(=O)Nc2ccc(OCCCN3CC=CC3)cc2C)c1	RT-P236L	fold resistance	HXB2	β-galactosidase	HeLa + HELA CD4+	~1
CC(C)C1=C2[C@H]3CC[C@@H]4[C@@]5(C)CC[C@H](OC(=O)[C@H]6C[C@@H](C(=O)O)C6(C)C)C(C)(C)[C@@H]5CC[C@@]4(C)[C@]3(C)CC[C@@]2(CCNCc2cccnc2)CC1=O		EC50	92HT599	p24 / ELISA	MT-2	<1 µM

2 of the rows above, restated:

SMILES	changes	endpoint	strain	read by	cell line	result
COc1ccc(S(=O)(=O)N(CC(C)C)C[C@@H](O)CCN(CC2CCCC2)S(=O)(=O)C(C)(C)C)cc1		EC90	IIIB	p24	CEM	1 µM
O=C(O)c1cc(-n2cccc2)ccc1Cl		EC90	92US657 R5 CLADE B	p24	PBMC + MT-2	133 µM